In the experiment the test system is Punta Toro virus. The experiment is described as follows: Antiviral activity against 5000 PFU Punta Toro virus Adames infected C57BL/6 mouse assessed as survival at 10 mg/kg, po twice daily for 5 days administered 24 hrs post viral challenge. It counts as functional.

Structures are written as SMILES.

For one molecule, Survival results are on record in ChEMBL document CHEMBL1154414, “In vitro and in vivo activities of T-705 against arenavirus and bunyavirus infections” (Antimicrob Agents Chemother, 2007).

As for `NC(=O)c1ncn([C@@H]2O[C@H](CO)[C@@H](O)[C@H]2O)n1` [RIBAVIRIN], the Survival worked out at 10%.
